Compound potency records, mixed from different reports. Data source: NIAID ChemDB in PubChem.

Common to all: whole-cell or culture tests; organism: HIV-2; read-out: EC50

ECn: concentration that inhibits the pathogen or its effect by n%. Neighbouring rows are from separate reports. An empty or dashed field is not shown.

smiles | changes | cells | strain or isolate | setting | method | value
O=C(CCCCCCCCCCC(=O)Nc1cc(S(=O)(=O)O)cc2cc(S(=O)(=O)O)cc(O)c12)Nc1cc(S(=O)(=O)O)cc2cc(S(=O)(=O)O)cc(O)c12 | - | MT-4 | ROD | - | cytopathic effect / MTT | 52 µM
Nc1ncnc2c1ncn2CCOCP(=O)(O)O | - | CEM | ROD | - | syncytia | 5.7 µg/mL
Cn1ncc2c1S(=O)(=O)N(CCc1ccccc1Br)C(=O)N2CCc1ccccc1Br | - | MT-4 | ROD | - | MTT | >231.5 µM
CCc1cc(NCc2nc3c(Cl)ccc(Cl)c3o2)c(=O)[nH]c1C | - | MT-4 | ROD | - | cytopathic effect / MTT | >71 µM
Cc1cc(C)cc(C(=O)c2cccnc2Nc2ccc(/C(N)=N\O)cc2)c1 | - | MT-4 | ROD | - | MTT | >30.27 µM
C=CCN1C(=O)c2cccn2S(=O)(=O)c2ccccc21 | - | MT-4 | - | - | cytopathic effect / MTT | >100 µM
CC(C)(C)NC(=O)[C@@H]1C[C@@H]2CCCC[C@@H]2CN1C[C@@H](O)[C@H](Cc1ccccc1)NC(=O)[C@H](CC(N)=O)NC(=O)c1ccc2ccccc2n1 | - | MT-4 | ROD | - | cytopathic effect / MTT | <0.0008 µg/mL
Cc1cn([C@H]2C=C[C@@H](COP3(=O)Oc4ccccc4C(C(Cl)Cl)O3)O2)c(=O)[nH]c1=O | - | CEM + CEM/O | - | - | - | 0.55 µM
Nc1ccn([C@@H]2O[C@H](CO)C[C@@H]2F)c(=O)n1 | - | MT-4 | ROD | - | cytopathic effect / MTT | 2.51 µg/mL
CC(C)(C)c1ccc(S(=O)(=O)N2CCC(NC(=O)c3cc(O)c(O)c(O)c3)CC2)cc1 | - | MT-4 | ROD | - | MTT | >131 µM
Nc1nc(N)c(Cl)c(OCCOCP(=O)(O)O)n1 | - | CEM | ROD | - | syncytia | 1.3 µg/mL
Cc1cccc2c1O[P@](=O)(OC[C@@H]1C=C[C@H](n3cc(C)c(=O)[nH]c3=O)O1)OC2 | - | CEM + CEM TK- | - | - | - | 0.048 µM
COc1cccc(C(=O)N2CCC(NC(=O)c3cc(O)c(O)c(O)c3)CC2)c1 | - | MT-4 | ROD | - | MTT | >76.6 µM
Nc1nc(N)c(Br)c(OCCOCP(=O)(O)O)n1 | - | CEM | ROD | - | syncytia | 3.2 µg/mL
Cc1cn([C@H]2C=C[C@@H](COP3(=O)OCc4cc(-c5ccccc5)ccc4O3)O2)c(=O)[nH]c1=O | - | CEM + CEM/O | - | - | - | 0.47 µM
CSC[C@H](NC(=O)COc1cccc2cnccc12)C(=O)N[C@@H](Cc1ccccc1)[C@H](O)C(=O)N1CSC(C)(C)[C@H]1C(=O)NC(C)(C)C | - | ATH8 | ROD | - | cytopathic effect | 0.13 µM
C[C@H](CC1CNC2C(N)=NC(N)NC12)OCP(=O)(O)O | - | MT-4 | ROD | - | cytopathic effect / MTT | 47.7 ± 7 µg/mL
CC(C)(C)OC(=O)[C@@H]1CCCN1C[C@@H](O)[C@H](Cc1ccccc1)NC(=O)[C@H](CC(N)=O)NC(=O)OCc1ccccc1 | - | MT-4 | ROD | - | cytopathic effect / MTT | 10.9 µg/mL
CC(=O)c1ccc(C)cc1NC(C(N)=O)c1c(Cl)cccc1Cl | RT-E219D | MT-4 | EHO | - | cytopathic effect / MTT | 14 µM
C=C(COCP(=O)(O)O)Cn1cnc2c(=O)[nH]c(N)nc21 | - | MT-4 | ROD | - | - | 6.3 µM
Cc1cc(C)cc(C(=O)c2cccnc2Nc2ccncc2)c1 | - | MT-4 | ROD | - | MTT | >32.34 µM
CCOP(=O)(N[C@@H](C)C(=O)OC)OC[C@H]1O[C@@H](n2cc(C)c(=O)[nH]c2=O)C[C@@H]1N=[N+]=[N-] | - | MT-4 | ROD | - | cytopathic effect / MTT | 0.64 µg/mL
C[C@H](C[n+]1c[nH]c2c(NCCCC3CCCCC3)nc(N)nc21)OCP(=O)(O)O | - | MT-4 | ROD | - | cytopathic effect / MTT | 3.2 ± 1.6 µg/mL
Cc1cn([C@H]2C=C[C@@H](COP3(=O)OCc4cc5ccccc5cc4O3)O2)c(=O)[nH]c1=O | - | CEM + CEM TK- | - | - | - | 4 µM
Cc1cc(C)c(S(=O)(=O)N2CCC(NC(=O)c3cc(O)c(O)c(O)c3)CC2)c(C)c1 | - | MT-4 | ROD | - | MTT | >19.9 µM
O=S(=O)(O)c1cc(O)c2c(NS(=O)(=O)c3ccc(-c4ccc(S(=O)(=O)Nc5cc(S(=O)(=O)O)cc6cc(S(=O)(=O)O)cc(O)c56)cc4)cc3)cc(S(=O)(=O)O)cc2c1 | - | MT-4 | ROD | - | cytopathic effect / MTT | 23 µM
Cc1cn([C@H]2C=C[C@@H](COP3(=O)OCc4cc(-c5ccccc5)ccc4O3)O2)c(=O)[nH]c1=O | - | CEM + CEM TK- | ROD | - | syncytia | 6 µM
COc1ccc(CN[C@@H](C(=O)N[C@H](C(=O)NCc2nc3ccccc3[nH]2)C(C)C)[C@H](O)[C@H](Cc2ccccc2)NC(=O)[C@@H](NC(=O)CCc2ccc(O)cc2)C(C)(C)C)cc1 | - | MT-4 | ECHO | - | p24 | 0.38 µM
Nc1ncnc2c1ncn2CCOCP(=O)(O)O | - | MT-4 | ROD | - | - | 8 µM
Cc1cn([C@H]2C=C[C@@H](CO)O2)c(=O)[nH]c1=O | - | CEM + CEM/O | ROD | - | syncytia | 0.35 µM
Cc1cn([C@H]2C=C[C@@H](COP3(=O)OCc4cccc(-c5ccccc5)c4O3)O2)c(=O)[nH]c1=O | - | CEM + CEM/O | - | - | - | 0.27 µM
O=c1[nH]c(SCc2cn(Cc3ccccc3)nn2)nc(Cc2c(Cl)cccc2Cl)c1I | - | - | ROD | - | MTT | >120 µM
Cn1ncc2c1S(=O)(=O)N(CCc1ccccc1)C(=O)N2CCc1cccc(Cl)c1 | - | MT-4 | ROD | - | MTT | 44.7 µM
Cc1ccnc2c1NC(=O)c1cccnc1N2C1CC1 | - | MT-4 | RES056 | - | MTT | ≥7.59 µM
Cc1c(Cc2cccc3ccccc23)nc(SCc2cn(Cc3ccccc3C#N)nn2)[nH]c1=O | - | - | ROD | - | MTT | >123 µM
CCOC(=O)CC(=O)N1CCC(NC(=O)c2cc(O)c(O)c(O)c2)CC1 | - | MT-4 | ROD | - | MTT | >31.3 µM
Cn1ncc2c1S(=O)(=O)N(CCc1ccccc1)C(=O)N2CCc1ccc(C(C)(C)C)cc1 | - | MT-4 | ROD | - | MTT | 18.7 µM
NC(=O)c1ccc(Cn2cc(CSc3nc(Cc4cccc5ccccc45)c(I)c(=O)[nH]3)nn2)cc1 | - | - | ROD | - | MTT | >88.01 µM
Cc1ccc(S(=O)(=O)N2CCC(NC(=O)c3cc(O)c(O)c(O)c3)CC2)cc1 | - | MT-4 | ROD | - | MTT | >66.1 µM
O[C@H]1[C@H](O)[C@@H](O)CN2CC[C@H](O)[C@H]12 | - | MT-4 | ROD | - | cytopathic effect / MTT | 28.6 µg/mL
Cc1cc(C)cc(C(=O)c2cccnc2Nc2cnccn2)c1 | - | MT-4 | ROD | - | MTT | >240 µM
Nc1ccc(C(=O)N2CCC(NC(=O)c3cc(O)c(O)c(O)c3)CC2)cc1 | - | MT-4 | ROD | - | MTT | >35.6 µM
Fc1cccc(F)c1C1SCc2nc3ccccc3n21 | - | MT-4 | ROD | - | cytopathic effect | >49 µM
COc1ncccc1C(=O)c1cccc(C#N)c1 | - | MT-4 | ROD | - | MTT | >255 µM
Fc1ccc(Cl)c(C2OCc3nc4ccccc4n32)c1 | - | MT-4 | ROD | - | cytopathic effect | >62 µM
C#C[C@]1(CO)O[C@@H](n2cnc3c(N)nc(F)nc32)CC1O | M184V | MAGIC-5A | ROD9 | - | β-galactosidase / absorbance | 0.011 µM
CCNc1nc(N(C)C)nc2c1ncn2C[C@@H](C)OCP(=O)(O)O | - | CEM | ROD | - | cytopathic effect / MTT | >4 µg/mL
Cc1cc(C)cc(C(=O)c2cccnc2Nc2ccc(O)cc2)c1 | - | MT-4 | ROD | - | MTT | >6.44 µM
COC(=O)[C@H](C)NP(=O)(OC[C@@H]1C=C[C@H](n2cc(C)c(=O)[nH]c2=O)O1)Oc1ccccc1 | - | MT-4 | ROD | 5 d | trypan blue | 0.07 µM
Cc1cn([C@H]2C[C@H](N=[N+]=[N-])[C@@H](CO)O2)c(=O)[nH]c1=O | - | CEM + CEM-SS | - | - | cytopathic effect / XTT | 0.02 µM
Cn1ncc2c1S(=O)(=O)N(CCc1ccccc1)C(=O)N2CCc1cccc(C#N)c1 | - | MT-4 | ROD | - | MTT | >307.1 µM
C1CNCCNCCCN(CCCN2CCCNCCNCCCNCC2)CCNC1 | - | MT-4 | ROD | - | cytopathic effect / MTT | 1 µM
COc1ccc2c(c1)COP(=O)(OC[C@@H]1C=C[C@H](n3cnc4c(N)ncnc43)O1)O2 | - | CEM + CEM/0 | - | - | - | 0.65 µM
CCCCCNc1nc(N)nc2c1[nH]c[n+]2C[C@@H](C)OCP(=O)(O)O | - | CEM | ROD | - | cytopathic effect / MTT | 15 ± 7.1 µg/mL
Cc1cc(C)cc(C(=Nc2ccc(C(N)=O)cc2)c2cccnc2Cl)c1 | - | MT-4 | ROD | - | MTT | >34.03 µM
Cc1cn([C@H]2C=C[C@@H](COP3(=O)OCc4c(ccc5ccccc45)O3)O2)c(=O)[nH]c1=O | - | CEM + CEM TK- | ROD | - | syncytia | 0.3 µM
Nc1nc(NCCc2ccccc2)c2ncn(CCOCP(=O)(O)O)c2n1 | - | MT-4 | ROD | - | cytopathic effect / MTT | 11.9 µg/mL
COC(=O)C(Cc1ccccc1)NC(=O)[C@@H](NC(=O)[C@@H](C[C@H](O)[C@H](CC1CCCCC1)NC(=O)[C@@H](NC(=O)[C@H](Cc1ccccc1)CS(=O)(=O)C(C)(C)C)C(C)C)C(C)C)C(C)C | - | MT-4 | ROD | - | cytopathic effect / MTT | 10.9 µM
Cc1cn([C@H]2C=C[C@@H](COP3(=O)OCc4c(ccc5ccccc45)O3)O2)c(=O)[nH]c1=O | - | CEM + CEM TK- | - | - | - | 0.8 µM
Cc1cc(C)cc(C(=O)c2cccnc2Nc2ccc(S(C)(=O)=O)cc2)c1 | - | MT-4 | ROD | - | MTT | >98.17 µM
Cc1ccc(C(=O)N2CCC(NC(=O)c3cc(O)c(O)c(O)c3)CC2)cc1 | - | MT-4 | ROD | - | MTT | >29.6 µM
COc1ccc(Cn2cc(CSc3nc(Cc4c(Cl)cccc4Cl)c(C)c(=O)[nH]3)nn2)cc1 | - | - | ROD | - | MTT | >28.98 µM
CN1C(=O)c2cccn2S(=O)(=O)c2cc(Cl)ccc21 | - | MT-4 | - | - | cytopathic effect / MTT | >100 µM
Cc1cn([C@H]2C=C[C@@H](CO)O2)c(=O)[nH]c1=O | - | CEM | ROD | 4 d | syncytia | 0.78 µM
C1CNCCNCCCN[C@H]([C@@H]2CNCCCNCCNCCCN2)CNC1 | - | MT-4 | ROD | - | cytopathic effect / MTT | 1.01 µM
CCN1C(=O)c2cccn2S(=O)(=O)c2ccccc21 | - | MT-4 | - | - | cytopathic effect / MTT | >100 µM

A second listing of 6 rows from above:

smiles | changes | cells | strain or isolate | setting | method | value
Cn1ncc2c1S(=O)(=O)N(CCc1ccccc1)C(=O)N2CCc1cccc(Cl)c1 | - | MT-4 | ROD | - | MTT | 44.7 µM
Cc1cn([C@H]2C=C[C@@H](COP3(=O)OCc4cc(-c5ccccc5)ccc4O3)O2)c(=O)[nH]c1=O | - | CEM + CEM/O | - | - | - | 0.47 µM
COc1ncccc1C(=O)c1cccc(C#N)c1 | - | MT-4 | ROD | - | MTT | >255 µM
Cn1ncc2c1S(=O)(=O)N(CCc1ccccc1Br)C(=O)N2CCc1ccccc1Br | - | MT-4 | ROD | - | MTT | >231.5 µM
Cc1ccc(C(=O)N2CCC(NC(=O)c3cc(O)c(O)c(O)c3)CC2)cc1 | - | MT-4 | ROD | - | MTT | >29.6 µM
C=CCN1C(=O)c2cccn2S(=O)(=O)c2ccccc21 | - | MT-4 | - | - | cytopathic effect / MTT | >100 µM